Reference: PubChem BioAssay AID1259414 (Drosophila RNAi Screening Center, 2018)
The deposit covers about 24,000 reagents; shown is a random part of those that have a named target and a result. Over the whole deposit, about 1,210 (5%) got an active call. 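Inactive calls also include excluded dsRNAs with several or no targets, genes unexpressed in JW18, and well A1, regardless of score.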 Unmarked entries are inactive. The numbers tell different reagents against one gene apart.

- Test: 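Host factors increasing or decreasing Wolbachia levels in cultured fly cells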 (primary screen)
- System: Drosophila JW18 cells infected with Wolbachia
- Knock-down reagent: long dsRNA against Drosophila genes, 0.25 µg dsRNA per well of a 384-well plate
- Time to read-out: 5 days
- Conditions: cells persistently infected with Wolbachia before knock-down; no added drug
- Measurement: 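Imaged fluorescence in situ signal for Wolbachia 23S rRNA per DAPI-counted host cell, given as a robust z-score within each plate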
- Reading the numbers: Wolbachia per cell robust z: higher = more Wolbachia per host cell than the plate typical
- Hit rule: 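Active if absolute robust z reaches 1.5 in two or more of three replicates, leaving out multi- or no-target dsRNAs, genes unexpressed in JW18 and A1 wells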

gene | reagent no. | Wolbachia per cell robust z, rep 1 | Wolbachia per cell robust z, rep 2 | Wolbachia per cell robust z, rep 3
CG15708 | 1 | 0.147 | -0.413 | -0.617
CG18528 | 1 | -4.33 | 0.804 | 0.783
Ogg1 | 1 | -0.123 | 0.807 | 0.257
srw | 1 | 0.122 | 0.356 | -0.108
CG15861 | 1 | -1.07 | -1.63 | 0.668
CG15861 | 2 | -0.0499 | -0.544 | 0.213
Nmnat | 1 | 0.657 | 0.507 | -0.608
Nmnat | 2 | -0.733 | -0.679 | -2.12
CG33284 | 1 | 0.0685 | 0.797 | -0.182
CG33284 | 2 | -6.76 | 0.515 | 0.542
Dop1R1 | 1 | -0.627 | -0.763 | -8.98
Dop1R1 | 2 | 0.939 | 0.25 | 0.264
Dop1R1 | 3 | 0.283 | 0.226 | 0.257
CG4681 | 1 | 1.3 | -0.37 | 1.2
CG4681 | 2 | -0.0109 | -2 | 0.193
Rpt6 | 1 | 1.38 | 0.7 | 1.11
Rpt6 | 2 | -0.91 | -1.5 | -0.423
18SrRNA-Psi:CR41602 | 1 | 0.55 | 0.533 | 0.379
Tbh | 1 | -1.15 | 0.93 | -0.507
Tbh | 2 | 1.69 | 0.0476 | -0.372
CG5608 | 1 | -0.122 | -0.815 | -0.301
pck | 1 | 0.806 | 0.799 | -0.444
CG3690 | 1 | 0.823 | -1.33 | -0.819
CG3690 | 2 | -5.21 | -0.0722 | -3.46
atl | 1 | 2.22 | 1.01 | -0.715
atl | 2 | 2.31 (active) | 1.4 | 2.28
CG13876 | 1 | -0.0843 | 0.248 | 0.345
CG6765 | 1 | 0.925 | 0.571 | 0.916
CG6765 | 2 | 0.666 | 0.335 | 1.17
CG8012 | 1 | -1.26 | -0.0582 | -0.873
CG1307 | 1 | 1.33 | -2.38 | 0.189
CG14613 | 1 | 1.74 | 0.842 | 0.792
CG14613 | 2 | 0.291 | 1.25 | 0.885
spin | 1 | 0.562 | 0.512 | 0.561
spin | 2 | 0.145 | 1.03 | -0.537
CG3222 | 1 | 0.507 | 1.27 | 0.797
CG7377 | 1 | -3.53 | -0.566 | -1.14
CG42365 | 1 | 1.17 | 1.1 | 1.58
CG1494 | 1 | -2.54 (active) | -2.38 | -2.43
Mcr | 1 | -0.723 | -0.817 | 0.834
CG31523 | 1 | -0.591 | -0.104 | -0.422
CG31523 | 2 | 0.0157 | 0.147 | -0.0304
CG31523 | 3 | 1.23 | 0.339 | 0.185
CRIF | 1 | -2.72 | 0.887 | -0.453
CRIF | 2 | -0.0724 | 0.806 | -0.301
CG13258 | 1 | -1.67 | -0.4 | -0.589

Individual results from the list:
Ogg1, Wolbachia per cell robust z, rep 1: -0.123
CG33284 #1, Wolbachia per cell robust z, rep 2 → 0.797
CRIF #2, Wolbachia per cell robust z, rep 3 → -0.301
